Results of unrelated studies side by side (data: NIAID ChemDB).

Common to all: growth or infection tests; agent: HIV-1; cells: CEM + CEM-SS; measure: EC50

ECn is the concentration giving n% inhibition of infection, replication or growth.

NCCCCCCNC(=O)Cc1cn([C@@H]2C=C[C@H](CO)O2)c(=O)[nH]c1=O ; strain: LAI ; method: cytopathic effect / MTT ; result: >10 µM
CC=CCOc1cc(NC(=S)c2ccoc2C)ccc1OC ; strain: NL4-3 ; changes: RT-A98G ; method: cytopathic effect / XTT ; result: 0.03 µM
CCCc1cc(=O)oc2c3c(c4c(c12)OC(C)(C)CC4)O[C@H](C)[C@@H](C)[C@@H]3O ; strain: IIIB ; method: cytopathic effect / XTT ; result: 0.17 µM
Cn1cc(NC(=O)Nc2cc(C(=O)Nc3cc(C(=O)Nc4cc(C(=O)Nc5ccc(S(=O)(=O)O)c6cc(S(=O)(=O)O)ccc56)n(C)c4)n(C)c3)n(C)c2)cc1C(=O)Nc1cc(C(=O)Nc2cc(C(=O)Nc3ccc(S(=O)(=O)O)c4cc(S(=O)(=O)O)ccc34)n(C)c2)n(C)c1 ; strain: RF ; method: cytopathic effect / XTT ; result: 0.2 µM
COc1ccc2c(c1)O[C@@H]1c3ccc(OC)cc3OC[C@H]21 ; strain: RF ; method: cytopathic effect / XTT ; result: >25 µM
Cn1cc(NC(=O)Nc2cc(C(=O)Nc3cc(C(=O)Nc4cc(S(=O)(=O)O)c5cc(S(=O)(=O)O)cc(S(=O)(=O)O)c5c4)n(C)c3)n(C)c2)cc1C(=O)Nc1cc(C(=O)Nc2cc(S(=O)(=O)O)c3cc(S(=O)(=O)O)cc(S(=O)(=O)O)c3c2)n(C)c1 ; strain: N119 ; method: cytopathic effect / XTT ; result: 0.4 µM
COc1cc(OC)c2c(O)c(-c3cc(-c4cccc([N+](=O)[O-])c4)c4cc(OC)cc(OC)c4c3O)cc(-c3cccc([N+](=O)[O-])c3)c2c1 ; strain: RF ; method: cytopathic effect ; result: >100 µM
CCc1c(O)[nH]c(=O)c(C#N)c1Cc1cc(C)cc(C)c1 ; strain: LAI ; method: RT activity ; result: >100 µM
Cn1cc(NC(=O)Nc2cc(C(=O)Nc3ccc4cc(S(=O)(=O)O)cc(S(=O)(=O)O)c4c3)n(C)c2)cc1C(=O)Nc1ccc2cc(S(=O)(=O)O)cc(S(=O)(=O)O)c2c1 ; strain: RF ; method: cytopathic effect / XTT ; result: 80.7 µM
CCOCc1cn([C@H]2C=C[C@@H](CO)O2)c(=O)[nH]c1=O ; strain: LAI ; method: RT activity ; result: 2.6 µM
Cn1cc(NC(=O)Nc2cc(C(=O)Nc3cc(C(=O)Nc4ccc(P(=O)(O)O)c5cc(P(=O)(O)O)ccc45)n(C)c3)n(C)c2)cc1C(=O)Nc1cc(C(=O)Nc2ccc(P(=O)(O)O)c3cc(P(=O)(O)O)ccc23)n(C)c1 ; strain: RF ; method: cytopathic effect / XTT ; result: 1.7 µM
COc1ccc2c(c1)OC[C@@H]1c3cc(O)c(OCc4ccccc4)cc3O[C@]21C ; strain: RF ; method: cytopathic effect / XTT ; result: >18.2 µM
FC(F)(Sc1ncccn1)c1nc2ccccc2o1 ; strain: HEPT (RT P236L) ; changes: RT-P236L ; method: cytopathic effect / XTT ; result: 8.64 µM
CCc1c(OC)nc(OC)c2c1CC1(CC(C)CC(C)C1)OC2=O ; strain: LAI ; method: RT activity ; result: >100 µM
COc1cc(C)cc2c(-c3ccccc3)cc(-c3cc(-c4ccccc4)c4cc(C)cc(OC)c4c3O)c(O)c12 ; strain: RF ; method: cytopathic effect ; result: >100 µM
CCCCCCCCCCCCCCCC(=O)Nc1ccn([C@H]2CC[C@@H](COP(=O)(O)O[C@H]3C[C@H](n4cc(C)c(=O)[nH]c4=O)O[C@@H]3CO)O2)c(=O)n1 ; method: cytopathic effect / XTT ; result: 0.0763 µM
C[C@]12CCC3C(CC[C@H]4C[C@@H](CCC=C(c5cc(Cl)c(O)c(C(=O)O)c5)c5cc(Cl)c(O)c(C(=O)O)c5)CC[C@]34C)C1CC[C@@H]2CCC=C(c1cc(Cl)c(O)c(C(=O)O)c1)c1cc(Cl)c(O)c(C(=O)O)c1 ; strain: IIIB ; method: cytopathic effect / MTT ; result: 20 µM
Cc1occc1C(=S)Nc1ccc(Cl)c(C(=O)OC(C)C)c1 ; strain: NL4-3 ; changes: RT-V108I ; method: cytopathic effect / XTT ; result: 0.09 µM
Cc1cn([C@H]2C=C[C@@H](CO)O2)c(=O)[nH]c1=O ; strain: LAI ; method: cytopathic effect / MTT ; result: 0.059 µM
CCCCCCCCCCCCCCCCNC(=O)[C@@H](N)CO[C@@H]1O[C@H](CO)[C@H](O)[C@H](O)[C@H]1O ; strain: LAI ; method: RT activity ; result: 50 µM
Cc1occc1C(=S)Nc1ccc(Cl)c(C(=O)OCC2CC2)c1 ; strain: NL4-3 ; changes: RT-K103N ; method: cytopathic effect / XTT ; result: 1.4 µM
CCCCCCC(C)[C@H]1CCC2C3CC[C@H]4C[C@@H](CCC=C(c5cc(Cl)c(O)c(C(=O)O)c5)c5cc(Cl)c(O)c(C(=O)O)c5)CC[C@]4(C)C3CC[C@@]21C ; strain: IIIB ; method: cytopathic effect / MTT ; result: 3 µM
COc1ccc2c(c1)N(S(=O)(=O)c1ccc(C)cc1)C[C@@H]1c3cc(O)c(OCc4ccccc4)cc3O[C@H]21 ; strain: RF ; method: cytopathic effect / XTT ; result: >80 µM
CC1(C)OC(c2cnn(-c3ccccc3)n2)C(C(O)CN2CCC(Cc3ccccc3)CC2)O1 ; strain: RF ; method: cytopathic effect / MTS ; result: >100 µM
CC(C)(C)NC(=O)c1ccccc1CCC(O)Cc1ccc2ccccc2c1C(=O)NC(C)(C)C ; result: 63 µM
Cc1ccc2nc(/C(C#N)=C/c3ccc(-c4ccc(O)c(C(=O)O)c4)o3)[nH]c2c1 ; method: cytopathic effect / XTT ; result: 59 µM
CCCc1cc(=O)oc2c3c(c4c(c12)OC(C)(C)CC4)O[C@@H](C)[C@H](C)[C@@H]3O ; strain: 3TC-resistant (RT M184V) ; changes: RT-M184V ; method: cytopathic effect / XTT ; result: 1 µM
COc1c(Cl)cc(C(=CCCCCN[C@H]2CC[C@]3(C)C4CC[C@@]5(C)C(CC[C@@H]5C(C)CCCC(C)C)C4CC[C@H]3C2)c2cc(Cl)c(OC)c(C(=O)O)c2)cc1C(=O)O ; strain: IIIB ; method: cytopathic effect / MTT ; result: >150 µM
O=C(NCCc1ccccc1)C1=Cc2ccncc2CC1 ; strain: RF ; method: cytopathic effect / XTT ; result: >34 µM
COc1cccc2c(-c3cccc([N+](=O)[O-])c3)cc(-c3cc(-c4cccc([N+](=O)[O-])c4)c4cccc(OC)c4c3O)c(O)c12 ; strain: RF ; method: cytopathic effect ; result: >100 µM
CC(C)Oc1ccccc1CNC(=O)c1ccc2cnccc2n1 ; strain: IIIB ; method: cytopathic effect / XTT ; result: >31 µM
CCCCCCCCCCCCCCNC(=O)[C@H](CS[C@@H]1O[C@H](CO)[C@H](O)[C@H](O)[C@H]1NC(C)=O)NC(=O)CCCCCCCCCCC ; strain: LAI ; method: RT activity ; result: >18 µM
O=C(CCCN1C(=O)/C(=C/c2cccs2)SC1=S)Nc1ccc(O)c(C(=O)O)c1 ; method: cytopathic effect / XTT ; result: >63 µM
COc1cc(OC)c2c(O)c(-c3cc(-c4ccc5c(c4)OCO5)c4cc(OC)cc(OC)c4c3O)cc(-c3ccc4c(c3)OCO4)c2c1 ; strain: RF ; method: cytopathic effect ; result: >100 µM
Cc1cc(S(=O)(=O)Nc2nc(N)n(-c3ccccn3)n2)c(S)cc1Cl ; strain: RF ; method: cytopathic effect / XTT ; result: 100 µM
CC(C)=CCOc1cc(NC(=S)c2ccoc2C)ccc1Cl ; strain: NL4-3 ; changes: RT-V108I ; method: p24 ; result: 0.01 µM
Cc1nc(CCCCCCC(=O)c2ccccc2)n2nc(NCCCCCCCCCCCCNCc3cn([C@H]4C=C[C@@H](CO)O4)c(=O)[nH]c3=O)ccc12 ; strain: Nevirapine-resistant ; method: RT activity ; result: 0.1 µM
Cc1cc(C)cc(Cc2c3c([nH]c(=O)c2C#N)OCC3)c1 ; strain: LAI ; method: RT activity ; result: >100 µM
CC(C)O/N=C/c1cc(NC(=S)OC(C)C)ccc1Cl ; strain: IIIB ; method: cytopathic effect / XTT ; result: 0.1 µM
CN(C)C1=C(C#N)/C(=C2/C(C#N)=C(N(C)C)N(c3ccc([N+](=O)[O-])cc3)c3c2n(C)c2ccccc32)c2c(c3ccccc3n2C)N1c1ccc([N+](=O)[O-])cc1 ; strain: N119 nevirapine-resistant (RT Y181C) ; changes: RT-Y181C ; method: cytopathic effect / XTT ; result: 1.01–9.73 µM
OB(O)CCCCn1cnc2c(Cl)ncnc21 ; strain: IIIB ; method: plaque count ; result: 7.7 µM
COc1cccc2c(-c3ccccc3)cc(-c3cc(-c4ccccc4)c4cccc(OC)c4c3O)c(O)c12 ; strain: RF ; method: cytopathic effect ; result: >100 µM
NCCCCCCNC(=O)Cc1cn([C@H]2C=C[C@@H](CO)O2)c(=O)[nH]c1=O ; strain: LAI ; method: cytopathic effect / MTT ; result: >100 µM
Cc1nc(CCCCCCC(=O)c2ccccc2)n2nc(NCCCCCCCCNCc3cn([C@H]4C=C[C@@H](CO)O4)c(=O)[nH]c3=O)ccc12 ; strain: LAI ; method: RT activity ; result: 0.06 µM
C=CCO/N=C/c1cc(NC(=S)c2ccoc2C)ccc1Cl ; strain: NL4-3 ; changes: RT-Y181C ; method: cytopathic effect / XTT ; result: 0.4 µM
COc1ccc2c(c1)OC[C@@H]1c3cc(OC)c(OCc4ccccc4)cc3O[C@H]21 ; strain: RF ; method: cytopathic effect / XTT ; result: 5.97 µM
CN1N=C(N)c2cn([C@@H]3O[C@H](COP(=O)(O)O)[C@@H](O)[C@H]3O)c3ncnc1c23 ; strain: G ; method: cytopathic effect / XTT ; result: 0.15 µM
CCCCCCCCCCCCCCCC(=O)Nc1ccn([C@H]2C[C@H](OP(=O)(O)OC[C@H]3O[C@@H](n4cc(C)c(=O)[nH]c4=O)C[C@@H]3N=[N+]=[N-])[C@@H](CO)O2)c(=O)n1 ; method: cytopathic effect / XTT ; result: 1.58 µM
Cc1nc(CCCCCCC(=O)c2ccccc2)n2nc(NCCCCCCCCCCN)ccc12 ; strain: LAI ; method: RT activity ; result: 5.4 µM
COc1cc(-c2ccc(N=Nc3ccc4c(S(=O)(=O)O)cc(S(=O)(=O)O)c(N)c4c3O)c(OC)c2)ccc1N=Nc1ccc2c(S(=O)(=O)O)cc(S(=O)(=O)O)c(N)c2c1O ; strain: 205 ; method: RT activity ; result: 0.6 µM
Cc1nc(CCCCCCC(=O)c2ccccc2)n2nc(NCCCCCCCCCCNCc3cn([C@H]4C=C[C@@H](CO)O4)c(=O)[nH]c3=O)ccc12 ; strain: Nevirapine-resistant ; method: RT activity ; result: 0.1 µM
CCCCCCCCCCCCCCNC(=O)[C@@H](N)CS[C@@H]1O[C@H](CO)[C@H](O)[C@H](O)[C@H]1O ; strain: LAI ; method: RT activity ; result: >27 µM
NCCCCCCCCCCNC(=O)Cc1cn([C@H]2C=C[C@@H](CO)O2)c(=O)[nH]c1=O ; strain: LAI ; method: cytopathic effect / MTT ; result: 75 µM
Cc1occc1C(=S)Nc1ccc(Cl)c(/C=N/OC(C)(C)C)c1 ; strain: RF ; method: cytopathic effect / XTT ; result: 0.049 µM
C[C@@H](Cn1cnc2c(=O)[nH]c(N)nc21)OCP(=O)(O)O ; strain: LAV-Bru ; method: cytopathic effect / XTT ; result: 12 µM
CC1(C)OC(c2cnn(-c3ccccc3)n2)C(C2CO2)O1 ; strain: RF ; method: cytopathic effect / MTS ; result: >100 µM
COc1cc(-c2ccc(N=Nc3ccc4c(S(=O)(=O)O)cc(S(=O)(=O)O)c(N)c4c3O)c(OC)c2)ccc1N=Nc1ccc2c(S(=O)(=O)O)cc(S(=O)(=O)O)c(N)c2c1O ; strain: A17 ; method: cytopathic effect / XTT ; result: 0.6 µM
CCCCCCCCCCCCCCNC(=O)[C@@H](N)CS[C@@H]1O[C@H](CO)[C@H](O)[C@H](O)[C@H]1NC(C)=O ; strain: LAI ; method: RT activity ; result: >30 µM
CN1CCN(CC(O)C2OC(C)(C)OC2c2cnn(-c3ccccc3)n2)CC1 ; strain: RF ; method: cytopathic effect / MTS ; result: >100 µM
Cn1cc(NC(=O)Nc2cc(C(=O)Nc3cc(C(=O)Nc4ccc5cc(S(=O)(=O)O)cc(S(=O)(=O)O)c5c4)n(C)c3)n(C)c2)cc1C(=O)Nc1cc(C(=O)Nc2ccc3cc(S(=O)(=O)O)cc(S(=O)(=O)O)c3c2)n(C)c1 ; strain: RF ; method: cytopathic effect / XTT ; result: 29.6 µM
COc1cccc2c(-c3ccc4c(c3)OCO4)cc(-c3cc(-c4ccc5c(c4)OCO5)c4cccc(OC)c4c3O)c(O)c12 ; strain: RF ; method: cytopathic effect ; result: >100 µM
Cc1cn([C@H]2C=C[C@@H](CO)O2)c(=O)[nH]c1=O ; result: 0.059 µM

The first 6 rows once more:

smiles,strain,changes,method,result
NCCCCCCNC(=O)Cc1cn([C@@H]2C=C[C@H](CO)O2)c(=O)[nH]c1=O,LAI,-,cytopathic effect / MTT,>10 µM
CC=CCOc1cc(NC(=S)c2ccoc2C)ccc1OC,NL4-3,RT-A98G,cytopathic effect / XTT,0.03 µM
CCCc1cc(=O)oc2c3c(c4c(c12)OC(C)(C)CC4)O[C@H](C)[C@@H](C)[C@@H]3O,IIIB,-,cytopathic effect / XTT,0.17 µM
Cn1cc(NC(=O)Nc2cc(C(=O)Nc3cc(C(=O)Nc4cc(C(=O)Nc5ccc(S(=O)(=O)O)c6cc(S(=O)(=O)O)ccc56)n(C)c4)n(C)c3)n(C)c2)cc1C(=O)Nc1cc(C(=O)Nc2cc(C(=O)Nc3ccc(S(=O)(=O)O)c4cc(S(=O)(=O)O)ccc34)n(C)c2)n(C)c1,RF,-,cytopathic effect / XTT,0.2 µM
COc1ccc2c(c1)O[C@@H]1c3ccc(OC)cc3OC[C@H]21,RF,-,cytopathic effect / XTT,>25 µM
Cn1cc(NC(=O)Nc2cc(C(=O)Nc3cc(C(=O)Nc4cc(S(=O)(=O)O)c5cc(S(=O)(=O)O)cc(S(=O)(=O)O)c5c4)n(C)c3)n(C)c2)cc1C(=O)Nc1cc(C(=O)Nc2cc(S(=O)(=O)O)c3cc(S(=O)(=O)O)cc(S(=O)(=O)O)c3c2)n(C)c1,N119,-,cytopathic effect / XTT,0.4 µM

An empty or dashed field is not shown. Rows are shuffled and stem from different studies. a–b is a range or a potency band.